Measured values from several laboratories, pooled; numbers as filed in NIAID ChemDB.

Shared fields: whole-cell or culture tests; agent: Candida albicans; read-out: MIC

Blank or dashed fields: not listed here. Lines come from different laboratories, so protocols vary.

compound	setting	strain	read by	value
C[C@@H]1[C@H](O)[C@@H](C)/C=C/C=C/CC/C=C/C=C/C=C/C=C/C(O[C@H]2O[C@H](C)[C@@H](O)[C@H](N)[C@@H]2O)CC2O[C@](O)(CC(O)C(O)CCC(O)CC(O)CC(O)CC(=O)O[C@H]1C)CC(O)C2C(=O)O		ATCC 24433	agar	1.56 µg/mL
COc1ccc(-c2cc(-c3ccc4oc(=O)c(-c5ccccc5)c(C)c4c3)nc3c2oc2ccccc23)cc1		MTCC 227	broth dilution / turbidity	1000 µg/mL
COc1cc2c(c3oc(=O)c4c(c13)CCC4=O)C1C=COC1O2			agar	>100 µM
CCC(C)n1ncn(-c2ccc(N3CCN(c4ccc(OC[C@H]5CO[C@](Cn6cncn6)(c6ccc(Cl)cc6Cl)O5)cc4)CC3)cc2)c1=O		Isogenic isolate 13 Erg11 (4-5X) R467K		0.06 µg/mL
CC1CC(C)CN(c2nc(NCCNc3ncnc4c(Br)cc(Br)cc34)nc(NC3CC3)n2)C1		MTCC 183	agar	100 µg/mL
CCN1CC(c2ccccc2)NC(C#N)=C1C#N		RCPF Y-401/NCTC 885-653	broth dilution / visual reading	>100 µg/mL
Brc1cc(Br)c2ncnc(NCCNc3nc(NC4CC4)nc(N4CCN(Cc5ccccc5)CC4)n3)c2c1		MTCC 183	agar	100 µg/mL
O=C(NC1CCCCC1)n1[se]c2ccccc2c1=O			agar	10 µg/mL
C[C@@H]1[C@H](O)[C@@H](C)/C=C/C=C/C=C/C=C/C=C/C=C/C=C/[C@H](OC2O[C@@H](C)[C@H](O)[C@@H](N)[C@H]2O)C[C@@H]2OC(O)(C[C@@H](O)C[C@@H](O)[C@H](O)CC[C@@H](O)C[C@@H](O)CC(=O)C[C@H]1C)C[C@H](O)[C@H]2C(=O)O		MTCC 854		300 µg/mL
CC1CC(C)CC(C)C(O)/C(C#N)=C\C=C/CC(C2CCCC2C(=O)O)OC(=O)CC(O)C(C)C1			resazurin / visual reading	13.3 µg/mL
COc1cc(C=O)ccc1O	biofilm	ATCC 90028	XTT	500 µg/mL
CCN1CC(c2ccsc2)=NC(C#N)=C1C#N		RCPF Y-401/NCTC 885-653	broth dilution / visual reading	>100 µg/mL
Cc1c(N2CCC(C)(N)C2)c(F)cn2c(=O)c(C(=O)O)cc(C3CC3)c12		CCH442		>100 µg/mL
Cn1c(=O)cc(Oc2nc(Nc3ccc(C#N)cc3)nc(Sc3nc4ccccc4s3)n2)c2ccccc21		MTCC 183	agar	500 µg/mL
Nn1cnc2ccccc2c1=O			agar diffusion / agar	1000 µg/mL
Cn1c(=O)cc(Oc2nc(Nc3ccc(C#N)cc3)nc(Nc3ccccn3)n2)c2ccccc21		MTCC 183	agar	>500 µg/mL
Cc1cc(Cl)nc(NC(c2ccc(Cl)cc2)P(=O)(Oc2ccccc2)Oc2ccccc2)n1			agar diffusion / agar	100 µg/mL
COc1ccccc1O	biofilm	ATCC 90028	XTT	1000 µg/mL
Cn1c(=O)cc(Oc2nc(Nc3ccc(C#N)cc3)nc(Nc3nc4ccc(Br)cc4s3)n2)c2ccccc21		MTCC 183	agar	25 µg/mL
C[C@@H]1C[C@@H]([C@H](O)CC2CC(=O)NC(=O)C2)C(=O)[C@@H](C)C1		Isolate 1		0.36 µM
CCCCN(CCCC)CCOc1cc(O)c2c(=O)c(-c3ccc(O)cc3)coc2c1			MTT	>50 µg/mL
O=c1c2ccccc2[se]n1CO			agar	228 µg/mL
O=c1c(-c2ccc(O)cc2)coc2cc(OCCCCN3CCOCC3)cc(O)c12			MTT	>50 µg/mL
CCN1CC(c2ccccc2)=NC(C#N)=C1C#N		RCPF Y-401/NCTC 885-653	broth dilution / visual reading	>100 µg/mL
CCNCC1CCN(c2c(F)cn3c(=O)c(C(=O)O)cc(C4CC4)c3c2C)CC1.Cl		CCH442		>100 µg/mL
COc1ccc(N2CCN(c3nc(Cl)nc(NC4CC4)n3)CC2)cc1		MTCC 183	agar	100 µg/mL
Cc1c(-c2ccccc2)c(=O)oc2ccc(-c3cc(-c4ccc(F)cc4)c4oc5ccccc5c4n3)cc12		MTCC 227	broth dilution / turbidity	1000 µg/mL
COc1ccc(O)c(C=O)c1	biofilm	ATCC 90028	XTT	500 µg/mL
Cc1c(N2CCCC(CN)C2)c(F)cn2c(=O)c(C(=O)O)cc(C3CC3)c12		CCH442		>100 µg/mL
O=c1c(-c2ccc(O)cc2)coc2cc(OCCCCn3cnc4ccccc43)cc(O)c12			MTT	>50 µg/mL
Cc1ccc(NC(=O)CN(C)CC(O)Cn2c(=O)c3ccccc3n(C)c2=O)cc1		ATCC 76615	agar diffusion	16 µg/mL
O=C(O)/C=C/c1ccccc1	biofilm	ATCC 90028	XTT	4000 µg/mL
Cc1c(-c2ccccc2)c(=O)oc2ccc(-c3cc(-c4ccc(Cl)cc4)c4oc5ccccc5c4n3)cc12		MTCC 227	broth dilution / turbidity	1000 µg/mL
COc1cc2c(c3oc(=O)c4c(c13)CCC4=O)[C@H]1CCO[C@H]1O2			agar	>100 µM
C[C@H]1[C@H](O)[C@@H](C)/C=C/C=C/C=C/C=C/C=C/C=C/C=C/[C@H](O[C@@H]2O[C@H](C)[C@@H](O)[C@H](N)[C@@H]2O)C[C@@H]2O[C@](O)(C[C@@H](O)C[C@@H](O)CC[C@H](O)[C@@H](O)C[C@@H](O)CC(=O)O[C@H]1C)C[C@H](O)[C@H]2C(=O)O		ATCC 18804	broth dilution / visual reading	0.39 µg/mL
COc1cc(C(=O)O)ccc1O	biofilm	ATCC 90028	XTT	4000 µg/mL
O=c1c(O)cc([C@H]2Oc3cc(O)cc(O)c3C[C@H]2O)cc2c([C@H]3Oc4cc(O)cc(O)c4C[C@H]3O)cc(O)c(O)c12		NCTC 3179	turbidity	1024 µg/mL
Cn1[se]c2ccccc2c1=O			agar	3 µg/mL
Cn1c(=O)cc(Oc2nc(Nc3ccc(C#N)cc3)nc(Nc3nc4ccc(Cl)cc4s3)n2)c2ccccc21		MTCC 183	agar	50 µg/mL
CCCN(CCC)CCCOc1cc(O)c2c(=O)c(-c3ccc(O)cc3)coc2c1			MTT	>50 µg/mL
C[C@@H]1[C@H](O)[C@@H](C)/C=C/C=C/CC/C=C/C=C/C=C/C=C/C(O[C@H]2O[C@H](C)[C@@H](O)[C@H](N)[C@@H]2O)CC2O[C@](O)(CC(O)C(O)CCC(O)CC(O)CC(O)CC(=O)O[C@H]1C)CC(O)C2C(=O)O		ATCC 10231	visual reading	20 µg/mL
Cc1c(N2CCC(n3cccc3)CC2)c(F)cn2c(=O)c(C(=O)O)cc(C3CC3)c12		CCH442		>100 µg/mL
Cc1cc(Cl)nc(N)n1			agar diffusion / agar	1000 µg/mL
Cn1c(=O)cc(Oc2nc(Nc3ccc(C#N)cc3)nc(Nc3nc4ccc(F)cc4s3)n2)c2ccccc21		MTCC 183	agar	25 µg/mL
O=c1c(-c2ccc(O)cc2)coc2cc(O)cc(O)c12			MTT	>50 µg/mL
Brc1cc(Br)c2ncnc(NCCNc3nc(NC4CC4)nc(N4CCN(c5ccccc5)CC4)n3)c2c1		MTCC 183	agar	100 µg/mL
CCC(C)CC(C)CCCCCCCCC(=O)N[C@H]1C[C@@H](O)[C@H](NCCN)NC(=O)[C@@H]2[C@@H](O)CCN2C(=O)[C@H]([C@H](O)CCN)NC(=O)[C@H]([C@H](O)[C@@H](O)c2ccc(O)cc2)NC(=O)[C@@H]2C[C@@H](O)CN2C(=O)[C@H]([C@@H](C)O)NC1=O		DPL1000	resazurin	2 µg/mL
O=c1c(-c2ccc(O)cc2)coc2cc(OCCN3CCCC3)cc(O)c12			MTT	>50 µg/mL
Cc1c(N2CC[C@@H]([C@@H](C)N)C2)c(F)cn2c(=O)c(C(=O)O)cc(C3CC3)c12		CCH442		>100 µg/mL
O=c1c2ccccc2[se]n1CCO			agar	242 µg/mL
OC(Cn1cncn1)(Cn1cncn1)c1ccc(F)cc1F		YL 366	broth dilution	128 µg/mL
CCCn1[se]c2ccccc2c1=O			agar	2 µg/mL
COc1ccc(C(=O)O)cc1	biofilm	ATCC 90028	XTT	4000 µg/mL
CCN1C(C#N)=C(C#N)N=C(c2cccs2)C1/C=C/c1ccccc1		RCPF Y-401/NCTC 885-653	broth dilution / visual reading	>100 µg/mL
O=C(Nc1ccccc1)n1[se]c2ccccc2c1=O			agar	79 µg/mL
CCN1C(=O)C2(C3=C(C(=O)c4ccccc4C3=O)C3CCCN32)c2ccccc21			agar diffusion	125 µg/mL
C[C@@H]1[C@H](O)[C@@H](C)/C=C/C=C/CC/C=C/C=C/C=C/C=C/C(O[C@H]2O[C@H](C)[C@@H](O)[C@H](N)[C@@H]2O)CC2O[C@](O)(CC(O)C(O)CCC(O)CC(O)CC(O)CC(=O)O[C@H]1C)CC(O)C2C(=O)O		MTCC 227	broth dilution / turbidity	500 µg/mL
Oc1cccc2oc(-c3ccccc3)cc(=Nc3ccccc3N=c3cc(-c4ccccc4)oc4cccc(O)c34)c12			agar diffusion	50 µg/mL
O=C(O)c1ccccc1O	biofilm	ATCC 90028	XTT	2000 µg/mL
CCN1C(C#N)=C(C#N)N=C(c2ccsc2)C1/C=C/c1ccc(-c2ccccc2)cc1		RCPF Y-401/NCTC 885-653	broth dilution / visual reading	>100 µg/mL
Cc1cc(Cl)nc(NC(c2ccc(O)cc2O)P(=O)(Oc2ccccc2)Oc2ccccc2)n1			agar diffusion / agar	10 µg/mL

The last 8 rows once more:

compound,setting,strain,read by,value
CCN1C(C#N)=C(C#N)N=C(c2cccs2)C1/C=C/c1ccccc1,,RCPF Y-401/NCTC 885-653,broth dilution / visual reading,>100 µg/mL
O=C(Nc1ccccc1)n1[se]c2ccccc2c1=O,,,agar,79 µg/mL
CCN1C(=O)C2(C3=C(C(=O)c4ccccc4C3=O)C3CCCN32)c2ccccc21,,,agar diffusion,125 µg/mL
C[C@@H]1[C@H](O)[C@@H](C)/C=C/C=C/CC/C=C/C=C/C=C/C=C/C(O[C@H]2O[C@H](C)[C@@H](O)[C@H](N)[C@@H]2O)CC2O[C@](O)(CC(O)C(O)CCC(O)CC(O)CC(O)CC(=O)O[C@H]1C)CC(O)C2C(=O)O,,MTCC 227,broth dilution / turbidity,500 µg/mL
Oc1cccc2oc(-c3ccccc3)cc(=Nc3ccccc3N=c3cc(-c4ccccc4)oc4cccc(O)c34)c12,,,agar diffusion,50 µg/mL
O=C(O)c1ccccc1O,biofilm,ATCC 90028,XTT,2000 µg/mL
CCN1C(C#N)=C(C#N)N=C(c2ccsc2)C1/C=C/c1ccc(-c2ccccc2)cc1,,RCPF Y-401/NCTC 885-653,broth dilution / visual reading,>100 µg/mL
Cc1cc(Cl)nc(NC(c2ccc(O)cc2O)P(=O)(Oc2ccccc2)Oc2ccccc2)n1,,,agar diffusion / agar,10 µg/mL